Experimental data from US10266566B2, “Protease-resistant peptide ligands” (North Carolina State University, priority 2013, dated 2019).

Columns and labels:
[1] = target: IgG; conditions: protein ligands for antibody purification; read-out: dissociation constant; cited from earlier work
[2] = tested on: IgG; experiment: Purification of IgG (IVIG) from Cohn fraction II+III of human plasma, yield and purity; conditions: binding 0.25M NaCl in PBS
Description: Cohn fraction II+III was dissolved in PBS, pH 7.4 to obtain an approximate IgG concentration of 5 mg/mL and filtered sequentially using a 0.44 μm and a 0.22 μm filter from Pall Corporation (Port Washington, N.Y., USA). Each peptide resin was packed and swollen as described before. After equilibration with PBS buffer containing 0.25M NaCl, 100 μL of feed sample was loaded onto the column at a flow rate of 0.05 mL/min (87 cm/h). After washing the column with 2 mL of equilibration buffer at a flow rate of 0.2 mL/min (348 cm/h), elution was performed with 4 mL of 0.2M acetate buffer pH 5.0 at a flow rate of 0.4 mL/min (696 cm/h). […] The effluent was monitored by absorbance at 280 nm. […]
The amount of IgG in the collected fractions was quantified by HPLC using 1 mL HiTrap Protein G column. The yield of IgG was calculated as the ratio of IgG eluted to total IgG loaded. The purity of IgG in the eluted fractions was determined by sodium dodecyl sulfate polyacrylamide gel electrophoresis (SDS-PAGE) under reducing conditions using NuPAGE® Novex 4-12% Bis-Tris gels in a Xcell SuperLock™ Mini-Cell system (LifeSciences, Carlsbad, Calif., USA). […] The IgG purity was determined by densitometric analysis of Coomassie-stained gels by means of ImageJ 1.32j software (National Institutes of Health, Bethesda, Md., USA). […]

## Protein A: protein affinity ligand; Toyopearl AF-rProtein A-650F resin used as positive control
[1]
  Kd: ~0.01 µM
[2]; elution 0.2M acetate pH 5.0 (Protein A: PBS binding, 0.1M glycine pH 2.5 elution)
  IgG Yield: 94%
[2]; densitometry of SDS-PAGE, elution pH 5.0 (Protein A: PBS, glycine pH 2.5)
  IgG Purity: 75%
